From paper PMC7157764, “Avoiding Drug Resistance by Substrate Envelope-Guided Design: Toward Potent and Robust HCV NS3/4A Protease Inhibitors” (mBio, 2020) come the findings set out here.

By UniProt entry, the sequences of proteins in these tests, tags left out. Residues count along the entry.
UniProt P27958, 1027-1208 C1185S/D1194A limits assumed: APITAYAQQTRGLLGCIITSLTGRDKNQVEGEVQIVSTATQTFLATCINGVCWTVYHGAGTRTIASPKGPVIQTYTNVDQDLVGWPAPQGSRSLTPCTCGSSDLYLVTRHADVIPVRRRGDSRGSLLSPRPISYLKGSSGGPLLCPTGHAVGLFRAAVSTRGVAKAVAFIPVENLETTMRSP

Test [1] concerns the target HCV NS3/4A protease D168A variant (Hepatitis C virus genotype 1a, UniProt P27958, C1185S/D1194A). As to the kind of experiment: Enzyme inhibition assay, D168A NS3/4A protease variant. The note with it: for Ki: read-out: Ki D168A, 2 nM protease preincubated 1 h at room temperature with inhibitor, pH 7.5, 200 nM fluorogenic substrate, Morrison equation global fit, error from global fit of at least three replicates. As for the experimental part:
(§1) The HCV GT1a NS3/4A protease gene described in the Bristol Myers Squibb patent was synthesized by GenScript and cloned into a PET28a expression vector ([52]). Cys159 was mutated to a serine residue to prevent disulfide bond formation and facilitate crystallization. The D168A gene was engineered using a site-directed mutagenesis protocol from Stratagene. Protein expression and purification were carried out as previously described ([28]). Briefly, transformed Escherichia coli BL21(DE3) cells were grown in Tris-borate (TB) medium containing 30 μg/ml of kanamycin antibiotic at 37°C. After cultures reached an optical density at 600 nm (OD600) of 0.7, they were induced with 1 mM isopropyl-β-D-thiogalactopyranoside (IPTG) and harvested after 3 h of expression. Cells were pelleted by centrifugation, resuspended in resuspension buffer (RB) (50 mM phosphate buffer, 500 mM NaCl, 10% glycerol, 2 mM β-mercaptoethanol [β-ME], pH 7.5), and frozen at −80°C for storage.
(§2) The inner-filter effect (IFE) for the NS3/4A protease substrate was determined using a previously described method ([53]). […] . The fluorescence of free 5-FAM was determined by subtracting the first fluorescence endpoint reading from the reading at the second round. IFE corrections were then calculated by dividing the free 5-FAM florescence at each substrate concentration by the free 5-FAM florescence at zero substrate.
(§3) Km constants for GT1 and D168A protease were previously determined ([29]). Briefly, a 20 μM concentration of substrate [Ac-DE-Dap(QXL520)-EE-Abu-γ-[COO]AS-C(5-FAMsp)-NH2] (AnaSpec) was serially diluted into assay buffer (50 mM Tris, 5% glycerol, 10 mM dithiothreitol [DTT], 0.6 mM LDAO [N,N-dimethyldodecylamine N-oxide], and 4% dimethyl sulfoxide), and proteolysis was initiated by rapid injection of 10 μl of protease (final concentration, 20 nM) in a reaction volume of 60 μl. The fluorescence output from the substrate cleavage product was measured kinetically using an EnVision plate reader (Perkin-Elmer) with excitation wavelength at 485 nm and emission at 530 nm. Inner-filter effect corrections were applied to the initial velocities (Vo) at each substrate concentration. Graphs of Vo versus substrate concentration were globally fit to the Michaelis-Menten equation to obtain the Km value.
(§4) For each assay, 2 nM NS3/4A protease (GT1a and D168A) was preincubated at room temperature for 1 h with an increasing concentration of inhibitors in assay buffer (50 mM Tris, 5% glycerol, 10 mM DTT, 0.6 mM LDAO, and 4% dimethyl sulfoxide, pH 7.5). Inhibition assays were performed in nonbinding-surface 96-well black half-area plates (Corning) in a reaction volume of 60 μl. The proteolytic reaction was initiated by the injection of 5 μl of HCV NS3/4A protease substrate (AnaSpec), to a final concentration of 200 nM, and kinetically monitored using a Perkin Elmer EnVision plate reader (excitation at 485 nm; emission at 530 nm). Three independent data sets were collected for each inhibitor with each protease construct.

Test [2] has as its system HCV NS3/4A protease D168A variant. The description is as above. The note with it: Ki D168A / Ki GT1a WT, in parentheses in Table S1. As for the experimental part:
as §1, §2, §3, §4

Read-outs that look alike come from different tables or passages of the source.

For the compound `COc1ccc2nc(C)c(O[C@@H]3C[C@H]4C(=O)N[C@]5(C(=O)NS(=O)(=O)C6(C)CC6)C[C@H]5/C=C\CCCCC[C@H](NC(=O)OC5(C)CCCC5)C(=O)N4C3)nc2c1`, in test [1] (relative to P4-3, 1-methyl substituent added to cyclopentyl P4 cap), the “Fold increase in potency against D168A from P4-3 to P4-4” value was found to be 2 fold. Besides, the “Fold change of Ki, D168A relative to WT” value in test [2] is reported as 9 fold.

As to `COc1ccc2nc(C)c(O[C@@H]3C[C@H]4C(=O)N[C@]5(C(=O)NS(=O)(=O)C6(C)CC6)C[C@H]5/C=C\CCCCC[C@H](NC(=O)[C@@H](NC(C)=O)C(C)C)C(=O)N4C3)nc2c1`, the “Fold change of Ki, D168A relative to WT” value in test [2] amounted to 13 fold. Still for that read-out and setting: with `COC(=O)N[C@H](C(=O)N[C@H]1CCCCC/C=C\[C@@H]2C[C@@]2(C(=O)NS(=O)(=O)C2(C)CC2)NC(=O)[C@@H]2C[C@@H](Oc3nc4cc(OC)ccc4nc3C)CN2C1=O)C(C)(C)C` the figure was 8 fold.

For `COc1ccc2nc(C)c(O[C@@H]3C[C@H]4C(=O)N[C@]5(C(=O)NS(=O)(=O)C6(C)CC6)C[C@H]5/C=C\CCCCC[C@H](NC(=O)[C@@H](NC(C)=O)C5CCCC5)C(=O)N4C3)nc2c1`, in test [2], the “Fold change of Ki, D168A relative to WT” value is recorded as 39 fold. For `CC[C@H](C)[C@H](NC(C)=O)C(=O)N[C@H]1CCCCC/C=C\[C@@H]2C[C@@]2(C(=O)NS(=O)(=O)C2(C)CC2)NC(=O)[C@@H]2C[C@@H](Oc3nc4cc(OC)ccc4nc3C)CN2C1=O`, the “Fold change of Ki, D168A relative to WT” value in test [2] was determined as 11 fold. Turning to `COc1ccc2nc(C)c(O[C@@H]3C[C@H]4C(=O)N[C@]5(C(=O)NS(=O)(=O)C6(C)CC6)C[C@H]5/C=C\CCCCC[C@H](NC(=O)OC(C)(C)C)C(=O)N4C3)nc2c1`, the Ki (in general, the equilibrium dissociation constant of an inhibitor or competing ligand from its target) in test [1] (listed as parent compound) was 50 nM. For the same compound, the “Fold change of Ki, D168A relative to WT” value in test [2] came out at 14 fold. Consider `COc1ccc2nc(C)c(O[C@@H]3C[C@H]4C(=O)N[C@]5(C(=O)NS(=O)(=O)C6(C)CC6)C[C@H]5/C=C\CCCCC[C@H](NC(=O)OC5CCCC5)C(=O)N4C3)nc2c1`, for which the Ki in test [1] is 36 nM. In addition, the “Fold change of Ki, D168A relative to WT” value in test [2] is 32 fold. `COc1ccc2nc(C)c(O[C@@H]3C[C@H]4C(=O)N[C@]5(C(=O)NS(=O)(=O)C6(C)CC6)C[C@H]5/C=C\CCCCC[C@H](NC(=O)[C@@H](NC(C)=O)C(C)(C)C)C(=O)N4C3)nc2c1`: the “Fold change of Ki, D168A relative to WT” value in test [2] came out at 9 fold. With `COC(=O)N[C@H](C(=O)N[C@H]1CCCCC/C=C\[C@@H]2C[C@@]2(C(=O)NS(=O)(=O)C2(C)CC2)NC(=O)[C@@H]2C[C@@H](Oc3nc4cc(OC)ccc4nc3C)CN2C1=O)C1CCCC1`, the “Fold change of Ki, D168A relative to WT” value in test [2] is reported as 9 fold.
